Assay results from the supplement of paper PMC7156485.
The list shows a part of the results, in another mix than the full data.

How the values were obtained:
Conditions in all cases: concentration: 10 µM; 24 h
HCC1569 [1] = assay: cell number relative to DMSO (% of DMSO); higher = more cells (less growth inhibition / toxicity)
How it was run: (§1)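 Six fields per well were imaged at ×10 after the cells were fixed in 3.7% formaldehyde and stained with a rabbit anti-H1.0 antibody, an AlexaFluor 647 secondary and DAPI. The HCC1569 and TDF cells had been plated at 800 per well in 384-well plates (RPMI, 10% FBS) and treated in triplicate with compounds at 10 µM for 24 h at 37 °C. The values are the median of replicates of H1.0 nuclear intensity or cell number, as percent of the plate control. Smoothing for positional effects was applied to HCC1569 data.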

TDF [2] = assay: as above
How it was run: as §1

TDF [3] = assay: H1.0 immunofluorescence intensity relative to DMSO (% of DMSO); higher = stronger H1.0 induction, active = 120 or more
How it was run: as §1

HCC1569 [4] = assay: H1.0 immunofluorescence intensity relative to DMSO (% of DMSO); higher = stronger H1.0 induction, active = 140 or more
How it was run: as §1
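Throughout, for H1.0 immunofluorescence intensity relative to DMSO: TDF is a line of transformed human dermal fibroblasts of mesenchymal origin.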
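Throughout, for cell number relative to DMSO: TDF denotes transformed human dermal fibroblasts of mesenchymal origin.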

## COc1ccc(C=C(C#N)C#N)cc1 [Tyrphostin 1]
HCC1569 [1]
  cell number: 99.9
TDF [2]
  cell number: 98.7
TDF [3]
  H1.0 immunofluorescence intensity: inactive: 94
HCC1569 [4]
  H1.0 immunofluorescence intensity: inactive: 103

## COc1ccc(C=C(C#N)C#N)cc1
HCC1569 [1]
  cell number: 97.9
TDF [2]
  cell number: 109
TDF [3]
  H1.0 immunofluorescence intensity: inactive: 93.7
HCC1569 [4]
  H1.0 immunofluorescence intensity: inactive: 117
